Source: patent US20090010966

Test system: elongation factor 2 (EF2)

wild type DT382 (no sequence given) showed a Relative Activity, IVTT (ratio (IC50 WT / IC50 variant)) of 1.
